Reference: patent publication US20030095988A1, “Method of inducing autovaccination against HIV infection using structured treatment interruptions” (priority 2000, published 2003)

Tested on: IFN-gamma
Assay: In vitro IFN-gamma production of patient PBMC with immunomodulators
Format: cell-based, human
Protocol: Activation of HIV-specific T-cells in vitro. PBMC were plated into flat-bottom 96-microtiter plates (Costar, N.Y.) at 1 million cells/well in 200 ul complete RPMI 1640 medium containing 10 ug antigen and 10 lU/well recombinant human IL-2 (rhIL-2). (Increasing the concentration of IL-2 (up to 500 U/ml) is OK, especially less antigen gives same results when IFN-gamma assayed.) Control PBMC are plated in medium containing 10 IU/well rhIL-2 without antigen. Cells are then cultured for 18 hours. Brefeldin A (Sigma, USA) is added at 2 ug/ml and the cells are incubated for another 3 hours and then collected for intracellular staining.
IFN-gamma assay. Cells were collected and aliquoted to 0.5 million cells for FACS assay. After washing twice with 1 ml PBS containing 1% BSA, cells were resuspended in 40 ul PBS/1% BSA and stained with CD8, CD4, CD3, and CD45RO antibodies for 30 minutes on ice. After washing, cells were fixed and permeabilized with 0.5 ml Fix/Per solution (containing 4% paraformaldehyde and 0.2% saponin in PBS, pH7.4) for 15 minutes on ice. […] After intracellular staining cells were washed twice with 1 ml 1×Per buffer, resuspended in 0.5 ml 1% paraformaldehyde PBS buffer and analyzed on FACS (Coulter). […]

IL-2: recombinant human IL-2, Th1 activating cytokine
CD3+ T cells responses (IFN responses inhibited by IL-10 (FIG. 15, lower panel)): doubled | HIV-specific Th1 responses (independently from the amount of IL-10): significantly increases
